Compound potency records, mixed from different reports. Data source: NIAID ChemDB in PubChem.

Shared fields: whole-cell or culture tests; organism: Mycobacterium tuberculosis

MIC bound: limit read from a one-dose screen. Percent inhibition refers to the dose given; in toxicity tests it is the harm to the cells. Neighbouring rows are from separate reports. ECn is the concentration giving n% inhibition of infection, replication or growth. MIC50, MIC90 and the like: level of inhibition, or share of isolates inhibited. Blank or dashed fields: not listed here.

structure | dose | measure | method | strain | result
CCCc1cc(=O)oc2c(C(=O)CC)c(OS(=O)(=O)c3ccc(C)cc3)c3c(c12)OC(C)(C)CC3 | - | MIC | - | H37Ra | >128 µg/mL
NC[C@H]1O[C@H](O[C@H]2[C@H](O)[C@@H](O)[C@H](N)C[C@@H]2N)[C@H](N)[C@@H](O)[C@@H]1O | - | MIC | resazurin / absorbance | H37Rv | 0.55 µM
CC(C)=CCCC(C)CCC1(C)SC(=O)C(C)=C1O | - | MIC50 | - | H37Rv | 43 µM
NNc1cccc(Cl)n1 | 12.5 µg/mL | inhibition | BACTEC | H37Rv | 20%
Cc1ccc(C2SC=C3SC(/N=C\c4ccccc4)=NN32)cc1 | - | MIC | resazurin | H37Rv | 12.5 µg/mL
COc1ccc(-n2c(=O)oc3c(Cl)cc(Cl)cc3c2=O)cc1 | - | MIC | - | CNCTC MY331/88 | 126 µM
C=CCOc1cc2c(c3oc(=O)cc(CCC)c13)[C@@H](O)[C@H](C)[C@@H](C)O2 | - | MIC | - | H37Ra | >128 µg/mL
CC(C)=CCC1(C)SC(=O)C(C)=C1O | - | MIC50 | - | H37Rv | >300 µM
CCCn1c(C)cc(O)c(-c2ccccc2)c1=O | - | MIC | - | H37Ra | 64 µg/mL
CC[C@@H](CO)NCCN[C@@H](CC)CO | - | MIC | - | Isolate 16 | 0.5 µg/mL
CC1=C(O)C(=O)C(C2=C(O)C(=O)C(C)=C(O)C2=O)=C(O)C1=O | 12.8 µg/mL | inhibition | BACTEC | H37Rv | 12%
Cc1ccc(N2C(=O)CS/C2=N/NC(=O)c2cc(-c3cc(F)cc(F)c3)ccc2O)cc1 | 6.25 µg/mL | inhibition | BACTEC | H37Rv | <90%
Nc1c(-c2ccccc2)c2cc(Cl)ccc2[nH]c1=O | - | MIC | - | H37Rv | >6.25 µg/mL
COC1=NN(c2ccc(CNC(=O)c3c(C(F)(F)F)nc4ncc(Cl)cn34)cc2F)CCN1S(=O)(=O)C(F)(F)F | - | EC50 | GFP | - | 0.0024 µM
N/C(=N/c1nc(N)cc(=O)[nH]1)Nc1ccc(S(N)(=O)=O)cc1 | - | MIC bound | BACTEC | H37Rv | >12.5 µg/mL
CC1COC2(CCN(c3nc(=O)c4cc(C(F)(F)F)cc([N+](=O)[O-])c4s3)CC2)O1 | - | MIC | - | NTB9 | 0.25 µg/mL
Oc1ccc(C2SC=C3SC(/N=C\c4ccccc4)=NN32)cc1 | - | MIC | resazurin | H37Rv | 12.5 µg/mL
C#CCOc1cc2c(c3oc(=O)cc(CCC)c13)[C@@H](O)[C@H](C)[C@@H](C)O2 | - | MIC | - | H37Ra | >128 µg/mL
C=CCNC(=S)NNC(=O)c1cc(-c2cc(F)cc(F)c2)ccc1O | 6.25 µg/mL | inhibition | BACTEC | H37Rv | <90%
[I][Hg][CH2]C1Cc2ccccc2O1 | 12.5 µg/mL | inhibition | BACTEC | H37Rv | 99%
CC(=O)OC1C(OC(C)=O)C2C(C)CC3OC(=O)C(C)C3CC2(C)C1OC(C)=O | 12.5 µg/mL | inhibition | BACTEC | H37Rv | 10%
CCCc1cc(=O)oc2c(C(O)CC)c(OC(C)C)cc(OC(C)C)c12 | - | MIC | - | H37Ra | >128 µg/mL
CO[C@H]1/C=C/O[C@@]2(C)Oc3c(C)c(O)c4c(O)c(c(/C=N/N5CCN(C)CC5)c(O)c4c3C2=O)NC(=O)/C(C)=C\C=C\[C@H](C)[C@H](O)[C@@H](C)[C@@H](O)[C@@H](C)[C@H](OC(C)=O)[C@@H]1C | - | MIC | - | H37Rv | 0.022 µg/mL
CC1CCC(C(C)C2C(O)CC3C4CCC5CC(O)CCC5(C)C4CCC32C)NC1 | - | MIC bound | BACTEC | H37Rv | >12.5 µg/mL
Cc1ccc(/C=N\C2=NN3C(=CSC3c3ccc(C)cc3)S2)cc1 | - | MIC | resazurin | H37Rv | 3.125 µg/mL
Cc1cc(O)c(-c2cccc(Cl)c2)c(=O)[nH]1 | - | MIC | - | H37Ra | 16 µg/mL
O=P(O)(O)Oc1c(O)c2ccccc2c2ccccc12 | - | MIC bound | resazurin | H37Rv | <6.25 µg/mL
O=C(NN1C(=O)CSC1c1ccccc1)c1cc(-c2cc(F)cc(F)c2)ccc1O | 6.25 µg/mL | inhibition | BACTEC | H37Rv | <90%
CC(C)(C)NCCNc1cc(C(F)(F)F)nc2c(C(F)(F)F)cccc12 | - | MIC | - | H37Rv | >6.25 µg/mL
CC(C)=Nc1c(-c2ccccc2)c2cc(Cl)ccc2[nH]c1=O | - | EC50 | - | H37Rv | >6.25 µg/mL
CO[C@H]1/C=C/O[C@@]2(C)Oc3c(C)c(O)c4c(O)c(cc(OCC(=O)O)c4c3C2=O)NC(=O)/C(C)=C\C=C\[C@H](C)[C@H](O)[C@@H](C)[C@@H](O)[C@@H](C)[C@H](OC(C)=O)[C@@H]1C | - | MIC | - | H37RV ATCC9360 | 0.05 µg/mL
CCCc1nnc(NS(=O)(=O)c2ccc(C)cc2)o1 | 12.5 µg/mL | inhibition | BACTEC | H37Rv | -8%
CC1(C)CC[C@]2(C(=O)O)CC[C@]3(C)C(CC[C@@H]4[C@@]5(C)C[C@H](O)CC(C)(C)[C@@H]5CC[C@]43C)[C@@H]2C1 | - | MIC | resazurin | MMDO clinical isolate | 50 µg/mL
N/C(=N\N=C\c1cc2ccccc2o1)c1ccccn1 | - | MIC | - | - | >16 µg/mL
O=C(Nc1ccc(C2=NCCN2)c(Cl)c1)c1ccc(C(=O)Nc2ccc(C3=NCCN3)c(Cl)c2)cc1 | - | MIC bound | BACTEC | H37Rv | >12.5 µg/mL
Cc1[nH]n(C(=O)c2sc3ccc(Cl)cc3c2Cl)c(=O)c1N=Nc1c(Br)cc(Br)cc1Br | 40 µg/mL | inhibition | agar diffusion / agar | - | 22%
CN1C(=O)CS/C1=N/NC(=O)c1cc(-c2cc(F)cc(F)c2)ccc1O | 6.25 µg/mL | inhibition | BACTEC | H37Rv | <90%
CC1=C(O)C(C)(Cc2cccc(C(=O)c3ccccc3)c2)SC1=O | - | MIC50 | - | H37Rv | 50 µM
CC(=O)N1N=C(c2sc3ccc(Cl)cc3c2Cl)OC1c1cc2cc(C)ccc2nc1Cl | 40 µg/mL | inhibition | agar diffusion / agar | - | 8%
O=C1C(Cl)C(c2ccccc2Cl)N1C1=NN2C(=CSC2c2ccccc2)S1 | - | MIC | resazurin | H37Rv | 3.125 µg/mL
CO[C@H]1/C=C/O[C@@]2(C)Oc3c(C)c(O)c4c(O)c(c(/C=N/N5CCN(C)CC5)c(O)c4c3C2=O)NC(=O)/C(C)=C\C=C\[C@H](C)[C@H](O)[C@@H](C)[C@@H](O)[C@@H](C)[C@H](OC(C)=O)[C@@H]1C | - | MIC | - | Isolate 3 | >32 µg/mL
Cc1c(CN2CCSCC2)cc(-c2ccc(F)cc2)n1-c1ccc(Cl)cc1 | - | MIC | - | - | 2 µg/mL
N/C(=N\N=C\c1cc2ccccc2o1)c1cnccn1 | - | MIC | - | - | >16 µg/mL
CO[C@H]1/C=C/O[C@@]2(C)Oc3c(C)c(O)c4c(c3C2=O)C(=O)C(/C=N/N=C/N2CCCCC2)=C(NC(=O)/C(C)=C\C=C\[C@H](C)[C@H](O)[C@@H](C)[C@@H](O)[C@@H](C)[C@H](OC(C)=O)[C@@H]1C)C4=O | - | MIC | - | H37Rv | 0.0085 µg/mL
C[C@H]1COc2c(N3CCN(C)CC3)c(F)cc3c(=O)c(C(=O)O)cn1c23 | - | MIC | - | Isolate 14 | 0.25 µg/mL
Cc1[nH]n(C(=O)c2sc3ccc(Cl)cc3c2Cl)c(=O)c1N=Nc1ccc(F)cc1 | 40 µg/mL | inhibition | agar diffusion / agar | - | 29%
CC(=O)Nc1c(C)c2ccccc2[nH]c1=O | 6.25 µg/mL | inhibition | - | H37Rv | 0%
CCCCn1c(C)cc(O)c(-c2ccccc2)c1=O | - | MIC | - | H37Ra | 32 µg/mL
N/C(=N\N=C\c1nc2ccc([N+](=O)[O-])cc2o1)c1cnccn1 | - | MIC | - | - | >16 µg/mL
CC1(C)OCC2OC3(CO)OC(C)(C)OC3C2O1 | 12.5 µg/mL | inhibition | BACTEC | H37Rv | 18%
O=c1oc2c(Br)cc(Br)cc2c(=O)n1-c1ccc(Br)cc1 | - | MIC | - | CNCTC MY331/88 | 31.6 µM
Cc1cccc2c1NC(=O)C2=O | - | MIC bound | resazurin | H37Rv | >6.25 µg/mL
C=CCOc1cc(O)c2c(CCC)cc(=O)oc2c1C(=O)CC | - | MIC | - | H37Ra | >128 µg/mL
Cc1c(CN2CCN(C)CC2)cc(-c2ccccc2)n1-c1ccccc1Cl | - | MIC | - | - | >16 µg/mL
CC1=C(O)C(C)(CCC(C)CCCC(C)C)SC1=O | - | MIC50 | - | H37Rv | 22 µM
COc1ccc2cc1-c1cc(ccc1O)C[C@H]1c3cc4c(cc3CCN1C)Oc1c(OC)cc3c(c1O4)[C@H](C2)N(C)CC3 | - | MIC | - | PAS-R | 3.1 µg/mL
CCc1nc2ncc(Cl)cn2c1C(=O)NCc1ccc(N2CCC(S(=O)(=O)C(F)(F)F)C=N2)cc1 | - | EC50 | GFP | - | 0.004 µM
Cc1ccc(-c2cc(CN3CCSCC3)c(C)n2-c2ccc(F)cc2)cc1 | - | MIC | - | H37Rv | 0.5 µg/mL
CCCc1cc(=O)oc2c(C(O)CC)c(OCC)c3c(c12)OC(C)(C)CC3 | - | MIC | - | H37Ra | >128 µg/mL
CCc1nc2nc(OC)c(F)cn2c1C(=O)NCc1ccc(N2CCN(S(=O)(=O)C(F)(F)F)C=N2)c(F)c1 | - | EC50 | GFP | - | 0.12 µM
Cc1ccc2oc(/C=N/N=C(\N)c3cnccn3)nc2c1 | - | MIC | - | - | >16 µg/mL
Clc1ccc2c(c1)N(CCCN1CCCC13CCCCC3)c1ccccc1S2 | - | MIC | BACTEC | H37Rv | 12.5 µg/mL
Cc1cc(O)c(-c2ccc(F)cc2)c(=O)[nH]1 | - | MIC | - | H37Ra | 64 µg/mL
COC1=C(Br)[C@@H](O)[C@]2(C=C1Br)CC(C(=O)NCCCCNC(=O)C1=NO[C@]3(C=C(Br)C(OC)=C(Br)[C@@H]3O)C1)=NO2 | - | MIC | - | H37Rv (rifampin-resistant) | 12.5 µg/mL
Cc1cc(C(N)=O)c(C(N)=O)c(=O)[nH]1 | - | MIC bound | BACTEC | H37Rv | >12.5 µg/mL
CCOC(=O)c1cc(C(N)=O)n2ccc(-c3ccncc3)cc12 | - | EC90 | resazurin | H37Rv (ATCC 27294) | >100 µg/mL
O=C(Cn1cc(I)c(C(=O)NCC(O)CO)n1)NCC(O)CO | 12.5 µg/mL | inhibition | BACTEC | H37Rv | -19%
Cc1c(F)c(=O)oc2c(C)c3c(cc12)CC(CI)O3 | 12.5 µg/mL | inhibition | BACTEC | H37Rv | 31%
NC(=O)CCCc1ccc2oc3ccccc3c2c1 | 12.5 µg/mL | inhibition | BACTEC | H37Rv | 10%
Cc1c(CN2CCSCC2)cc(-c2ccc(Cl)cc2)n1-c1ccc(F)cc1 | - | MIC | - | - | 1 µg/mL
Cc1cc(=O)oc2c(C)c3c(cc12)CC(CN(C)C)O3 | 12.5 µg/mL | inhibition | BACTEC | H37Rv | 4%
COc1cc2c(c3c1CCC(C)(C)O3)Cc1c(cc(OC)c(OC)c1CCC(C)(C)O)O2 | - | MIC bound | BACTEC | H37Rv | >12.5 µg/mL
CC(=O)Nc1c(-c2ccccc2)c2cc(Cl)ccc2n(C)c1=O | - | MIC | - | H37Rv | >6.25 µg/mL
O=c1oc2c(Br)cc(Br)cc2c(=O)n1-c1cccc([N+](=O)[O-])c1 | - | MIC | - | CNCTC MY331/88 | 15.8 µM
Cc1c(CN2CCN(C)CC2)cc(-c2ccccc2F)n1-c1ccccc1F | - | MIC | - | - | 8 µg/mL
O=c1[nH]c2ccc(Cl)cc2c(-c2ccccc2)c1-[n+]1ccccc1 | - | MIC | - | H37Rv | >6.25 µg/mL
Cc1c(CN2CCN(C)CC2)cc(-c2ccccc2F)n1-c1cccc2ccccc12 | - | MIC | - | - | 4 µg/mL
COc1ccc(C2OC(c3sc4ccc(Cl)cc4c3Cl)=NN2C(C)=O)cc1OC | 40 µg/mL | inhibition | agar diffusion / agar | - | 2%
CC(=O)OCC1OC(OC(C)=O)C(NC(=O)CNC(=O)OCc2ccccc2)C(OC(C)=O)C1OC(C)=O | - | MIC bound | BACTEC | H37Rv | >12.5 µg/mL
Cc1c(CN2CCSCC2)cc(-c2ccc(F)cc2)n1-c1ccccc1Cl | - | MIC | - | - | 4 µg/mL
O=C(O)C(=O)NCc1cnccn1 | 12.5 µg/mL | inhibition | BACTEC | H37Rv | -3%
N/C(=N\N=C\c1ccccn1)c1ccccn1 | - | MIC | - | - | >16 µg/mL
CCN(CC)CCNc1ccc(CO)c2sc3ccccc3c(=O)c12 | 12.8 µg/mL | inhibition | BACTEC | H37Rv | 68%
Cc1ccc(C2SC=C3SC(N4C(=O)C(Cl)C4c4ccccc4)=NN32)cc1 | - | MIC | resazurin | H37Rv | 3.125 µg/mL
CC(N=c1cc2n(-c3ccc(Cl)cc3)c3ccccc3nc-2cc1Nc1ccc(Cl)cc1)c1ccccc1 | - | MIC | - | INH-r | 0.2 µg/mL
Cc1c(N)c(=O)[nH]c2ccccc12 | - | MIC | - | H37Rv | >6.25 µg/mL

For reference, 7 entries again:

structure,dose,measure,method,strain,result
Cc1ccc(N2C(=O)CS/C2=N/NC(=O)c2cc(-c3cc(F)cc(F)c3)ccc2O)cc1,6.25 µg/mL,inhibition,BACTEC,H37Rv,<90%
O=P(O)(O)Oc1c(O)c2ccccc2c2ccccc12,-,MIC bound,resazurin,H37Rv,<6.25 µg/mL
Cc1cccc2c1NC(=O)C2=O,-,MIC bound,resazurin,H37Rv,>6.25 µg/mL
Cc1c(CN2CCN(C)CC2)cc(-c2ccccc2)n1-c1ccccc1Cl,-,MIC,-,-,>16 µg/mL
CC[C@@H](CO)NCCN[C@@H](CC)CO,-,MIC,-,Isolate 16,0.5 µg/mL
CC(=O)OC1C(OC(C)=O)C2C(C)CC3OC(=O)C(C)C3CC2(C)C1OC(C)=O,12.5 µg/mL,inhibition,BACTEC,H37Rv,10%
CC(=O)Nc1c(C)c2ccccc2[nH]c1=O,6.25 µg/mL,inhibition,-,H37Rv,0%